Among the data in PMC12091907 (Gut Microbes, 2025) are Kd values, retold here.

The target of the experiment is Toxin B (TcdB) from Clostridioides difficile, native full-length (Clostridioides difficile). Kind of experiment: ELISA. The settings on record: both partners purified.

B1: human CD44 extracellular domain (CD44-ECD, amino acids 21-220), labeled with Fc (Fc fusion)
chain: QIDLNITCRFAGVFHVEKNGRYSISRTEAADLCKAFNSTLPTMAQMEKALSIGFETCRYGFIEGHVVIPRIHPNSICAANNTGVYILTSNTSQYDTYCFNASAPPEEDCTSVTDLPNAFDGPITITIVNRDGTRYVQKGEYRTNPEDIYPSNPTDDDVSSGSSSERSSTSGGYIFYTFSTVHPIPDEDSPWITDSTDRIP
For B1, the Kd is around 78 nM.
